# Mutational interference map of HIV-1 RNA dimerization

Reference: Ye et al. 2022, doi:10.1038/s41594-022-00746-2.

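Mutant RNA libraries with 1G, 2G or 3G starts, with or without cap, were folded at 37 °C for 30 min. High salt was 300 mM KCl and 5 mM MgCl2, low salt 40 mM KCl and 0.1 mM MgCl2; monomer and dimer were parted on a native gel. Kdimer compares mutation frequencies in monomer and dimer, corrected for sequencing errors.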

RNA: 5' end of the HIV-1 NL4-3 genome, made in vitro. Positions 1-437 read:
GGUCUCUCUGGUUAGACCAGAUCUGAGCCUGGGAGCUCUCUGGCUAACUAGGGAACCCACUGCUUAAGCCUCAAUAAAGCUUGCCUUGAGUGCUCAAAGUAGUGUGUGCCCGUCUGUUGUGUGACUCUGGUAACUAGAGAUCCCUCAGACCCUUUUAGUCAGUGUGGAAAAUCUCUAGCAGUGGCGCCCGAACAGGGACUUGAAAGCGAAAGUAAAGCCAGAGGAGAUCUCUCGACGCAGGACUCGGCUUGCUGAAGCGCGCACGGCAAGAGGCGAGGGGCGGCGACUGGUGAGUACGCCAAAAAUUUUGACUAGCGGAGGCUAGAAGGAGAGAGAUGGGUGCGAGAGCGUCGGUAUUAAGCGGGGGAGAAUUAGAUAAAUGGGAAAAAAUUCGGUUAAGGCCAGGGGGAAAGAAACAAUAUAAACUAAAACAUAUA

Values are log2 Kdimer, the median over the changes at each position: higher means that changes there hinder dimer formation, below 0 that they favour it.
Sample: 1G uncapped low-salt.
One numbering serves 1G, 2G and 3G.
A position is written with its base.

position,domain,1G uncapped low-salt
A89,PolyA,0.42
G90,PolyA,-0.29
U91,PolyA,-0.02
G92,PolyA,0.41
C93,PolyA,-0.13
U94,PolyA,0.41
C95,PolyA,0.10
A96,PolyA,0.01
A97,PolyA,0.15
A98,PolyA,0.08
G99,PolyA,0.09
U100,PolyA,0.11
A101,PolyA,0.62
G102,PolyA,0.01
U103,PolyA,0.18
G104,PolyA,-0.03
U105,U5,0.12
G106,U5,0.45
U107,U5,0.61
G108,U5,-0.14
C109,U5,0.74
C110,U5,0.72
C111,U5,0.93
G112,U5,0.29
U113,none,0.19
C114,none,0.37
U115,none,0.26
G116,none,-0.33
U117,none,-0.15
U118,none,-0.09
G119,none,-0.43
U120,none,0.21
G121,none,-0.51
U122,none,0.50
G123,none,0.14
A124,none,0.26
C125,PAS,0.49
U126,PAS,0.31
C127,PAS,0.38
U128,PAS,0.44
G129,PAS,0.74
G130,PAS,0.19
U131,PAS,0.40
A132,PBS,0.00
A133,PBS,0.21
C134,PBS,-0.09
U135,PBS,-0.06
A136,PBS,-0.06
G137,PBS,0.63
A138,PBS,0.56
G139,PBS,0.53
A140,PBS,0.26
U141,PBS,0.20
C142,PBS,0.03
C143,PBS,0.33
C144,PBS,-0.02
U145,PBS,0.07
C146,PBS,-0.05
A147,PBS,0.10
G148,PBS,0.28
A149,PBS,-0.24
C150,PBS,0.32
C151,PBS,-0.10
C152,PBS,-0.01
U153,PBS,0.04
U154,PBS,-0.06
U155,PBS,0.24
U156,PBS,-0.20
A157,PBS,-0.08
G158,PBS,-0.32
U159,PBS,-0.06
C160,PBS,-0.23
A161,PBS,-0.04

Excerpt, the final 10 entries:

- C152 (domain PBS) -> -0.01
- U153 (domain PBS) -> 0.04
- U154 (domain PBS) -> -0.06
- U155 (domain PBS) -> 0.24
- U156 (domain PBS) -> -0.20
- A157 (domain PBS) -> -0.08
- G158 (domain PBS) -> -0.32
- U159 (domain PBS) -> -0.06
- C160 (domain PBS) -> -0.23
- A161 (domain PBS) -> -0.04